PubChem BioAssay AID1259414, Drosophila RNAi Screening Center – 2018

Assay: 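Genome-wide screen for host control of endosymbiont load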 (primary screen)
System: Drosophila JW18 cells infected with Wolbachia
Reagents: long dsRNA against Drosophila genes, 0.25 µg dsRNA per well of a 384-well plate
Timing: 5 days
Conditions: cells persistently infected with Wolbachia before knock-down; no added drug
Measurement: 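Automated imaging of bacterial rRNA staining divided by host cell count, reported as plate-normalised robust z-score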
Direction: Wolbachia per cell robust z: higher = more Wolbachia per host cell than the plate typical
Rule for the call: 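Active if absolute robust z reaches 1.5 in two or more of three replicates, leaving out multi- or no-target dsRNAs, genes unexpressed in JW18 and A1 wells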
The screen tested about 24,000 reagents; shown is an unselected part of those with a known target gene and a result. Of all reagents, about 1,210 (5%) were called active. 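Inactive calls also include excluded dsRNAs with several or no targets, genes unexpressed in JW18, and well A1, regardless of score.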 Reagents against one gene are numbered here. Names joined by + are all predicted targets of the reagent.

CG18749 + CG33722 | Wolbachia per cell robust z, rep 1: 0.025; Wolbachia per cell robust z, rep 2: -0.0307; Wolbachia per cell robust z, rep 3: 0.117; outcome: inactive
Coq6 #1 | Wolbachia per cell robust z, rep 1: 0.142; Wolbachia per cell robust z, rep 2: 0.786; Wolbachia per cell robust z, rep 3: 0.0263; outcome: inactive
Coq6 #2 | Wolbachia per cell robust z, rep 1: -1; Wolbachia per cell robust z, rep 2: -0.11; Wolbachia per cell robust z, rep 3: -1.17; outcome: inactive
CG15465 #1 | Wolbachia per cell robust z, rep 1: -0.414; Wolbachia per cell robust z, rep 2: 0.132; Wolbachia per cell robust z, rep 3: 0.891; outcome: inactive
CG15465 #2 | Wolbachia per cell robust z, rep 1: 1.07; Wolbachia per cell robust z, rep 2: 0.951; Wolbachia per cell robust z, rep 3: 1.21; outcome: inactive
Vlet #1 | Wolbachia per cell robust z, rep 1: -1.35; Wolbachia per cell robust z, rep 2: -0.29; Wolbachia per cell robust z, rep 3: 0.374; outcome: inactive
Vlet #2 | Wolbachia per cell robust z, rep 1: -1.25; Wolbachia per cell robust z, rep 2: 0.197; Wolbachia per cell robust z, rep 3: -0.33; outcome: inactive
CG8501 | Wolbachia per cell robust z, rep 1: -1.06; Wolbachia per cell robust z, rep 2: -0.874; Wolbachia per cell robust z, rep 3: -1.17; outcome: inactive
frm #1 | Wolbachia per cell robust z, rep 1: 0.731; Wolbachia per cell robust z, rep 2: 0.282; Wolbachia per cell robust z, rep 3: 0.654; outcome: inactive
frm #2 | Wolbachia per cell robust z, rep 1: -0.159; Wolbachia per cell robust z, rep 2: -0.803; Wolbachia per cell robust z, rep 3: -1.03; outcome: inactive
frm #3 | Wolbachia per cell robust z, rep 1: -0.0332; Wolbachia per cell robust z, rep 2: 0.742; Wolbachia per cell robust z, rep 3: -2.24; outcome: inactive
CG10863 | Wolbachia per cell robust z, rep 1: -0.0537; Wolbachia per cell robust z, rep 2: -0.231; Wolbachia per cell robust z, rep 3: -0.0666; outcome: inactive
nAChRalpha5 #1 | Wolbachia per cell robust z, rep 1: -6.5; Wolbachia per cell robust z, rep 2: -2.14; Wolbachia per cell robust z, rep 3: -2.24; outcome: inactive
nAChRalpha5 #2 | Wolbachia per cell robust z, rep 1: 1.44; Wolbachia per cell robust z, rep 2: 0.789; Wolbachia per cell robust z, rep 3: 0.98; outcome: inactive
nAChRalpha5 #3 | Wolbachia per cell robust z, rep 1: -0.0109; Wolbachia per cell robust z, rep 2: 1.75; Wolbachia per cell robust z, rep 3: 0.275; outcome: inactive
nAChRalpha5 #4 | Wolbachia per cell robust z, rep 1: -1.57; Wolbachia per cell robust z, rep 2: -1.1; Wolbachia per cell robust z, rep 3: -1.52; outcome: inactive
side-VII | Wolbachia per cell robust z, rep 1: -0.337; Wolbachia per cell robust z, rep 2: 0.157; Wolbachia per cell robust z, rep 3: 1.5; outcome: inactive
NP15.6 #1 | Wolbachia per cell robust z, rep 1: -0.396; Wolbachia per cell robust z, rep 2: 0.525; Wolbachia per cell robust z, rep 3: -5.32; outcome: inactive
NP15.6 #2 | Wolbachia per cell robust z, rep 1: 0.812; Wolbachia per cell robust z, rep 2: 1.2; Wolbachia per cell robust z, rep 3: -1.05; outcome: inactive
ash1 | Wolbachia per cell robust z, rep 1: 0.717; Wolbachia per cell robust z, rep 2: 3.4; Wolbachia per cell robust z, rep 3: 3.44; outcome: active
ReepA #1 | Wolbachia per cell robust z, rep 1: -0.0056; Wolbachia per cell robust z, rep 2: -0.0174; Wolbachia per cell robust z, rep 3: 0.348; outcome: inactive
ReepA #2 | Wolbachia per cell robust z, rep 1: 0.17; Wolbachia per cell robust z, rep 2: 0.144; Wolbachia per cell robust z, rep 3: -0.171; outcome: inactive
ReepA #3 | Wolbachia per cell robust z, rep 1: 0.706; Wolbachia per cell robust z, rep 2: 0.608; Wolbachia per cell robust z, rep 3: 1.48; outcome: inactive
ReepA #4 | Wolbachia per cell robust z, rep 1: 0.345; Wolbachia per cell robust z, rep 2: 0.895; Wolbachia per cell robust z, rep 3: -0.349; outcome: inactive
AcCoAS #1 | Wolbachia per cell robust z, rep 1: -0.0648; Wolbachia per cell robust z, rep 2: -2.05; Wolbachia per cell robust z, rep 3: -1.26; outcome: inactive
AcCoAS #2 | Wolbachia per cell robust z, rep 1: 0.705; Wolbachia per cell robust z, rep 2: -0.679; Wolbachia per cell robust z, rep 3: 0.758; outcome: inactive
AcCoAS #3 | Wolbachia per cell robust z, rep 1: 1.32; Wolbachia per cell robust z, rep 2: -0.534; Wolbachia per cell robust z, rep 3: 0.83; outcome: inactive
AcCoAS #4 | Wolbachia per cell robust z, rep 1: 1.09; Wolbachia per cell robust z, rep 2: 1.52; Wolbachia per cell robust z, rep 3: 1.7; outcome: active
CG13599 | Wolbachia per cell robust z, rep 1: -2.71; Wolbachia per cell robust z, rep 2: 0.279; Wolbachia per cell robust z, rep 3: -0.762; outcome: inactive
Ance-2 | Wolbachia per cell robust z, rep 1: 0.56; Wolbachia per cell robust z, rep 2: 0.659; Wolbachia per cell robust z, rep 3: 0.0409; outcome: inactive

Part of the list above, reformatted:
gene,dsRNA no.,"Wolbachia per cell robust z, rep 1","Wolbachia per cell robust z, rep 2","Wolbachia per cell robust z, rep 3",outcome
side-VII,1,-0.337,0.157,1.5,inactive
NP15.6,1,-0.396,0.525,-5.32,inactive
NP15.6,2,0.812,1.2,-1.05,inactive
